Anti-infective test results gathered from many reports (values: NIAID ChemDB through PubChem).

All rows: growth or infection tests; species: Candida parapsilosis; endpoint: MIC80

Neighbouring rows are from separate reports.

{"SMILES": "O=C(/C=C/c1ccccc1Cl)OC1CCN(CC(O)(Cn2cncn2)c2ccc(F)cc2F)CC1", "method": "broth dilution", "strain or isolate": "0306392", "result": "0.498 µM"}
{"SMILES": "O=C1S/C(=C\\c2ccc(Cl)cc2)C(=O)N1CC(O)(Cn1nccn1)c1ccc(F)cc1F", "strain or isolate": "CNCYP51", "result": "16.76 µg/mL"}
{"SMILES": "CN(CC(=O)Nc1ccc(F)c(Cl)c1)CC(O)(Cn1cncn1)c1ccc(F)cc1F", "result": "4 µg/mL"}
{"SMILES": "CCCCN(Cc1cn(Cc2ccc(C)cc2)nn1)CC(O)(Cn1cncn1)c1ccc(F)cc1F", "result": "<0.125 µg/mL"}
{"SMILES": "Cc1ccc(-c2c3c(N)c4c(nc3nc3c2c(C)nn3-c2ccccc2)CCCC4)cc1", "method": "broth dilution / absorbance", "strain or isolate": "CCC 124", "result": "31.2 µg/mL"}
{"SMILES": "CCCCCCCCCCC(=O)OC1CCN(CC(O)(Cn2cncn2)c2ccc(F)cc2F)CC1", "method": "broth dilution", "strain or isolate": "0306392", "result": "2.031 µM"}
{"SMILES": "O=C1S/C(=C\\c2cccs2)C(=O)N1CC(O)(Cn1nccn1)c1ccc(F)cc1F", "strain or isolate": "CNCYP51", "result": "2.23 µg/mL"}
{"SMILES": "O=C(/C=C/c1cccc(F)c1)OC1CCN(CC(O)(Cn2cncn2)c2ccc(F)cc2F)CC1", "method": "broth dilution", "strain or isolate": "0306392", "result": "0.129 µM"}
{"SMILES": "COc1cccc(NC(=O)CN(C)CC(O)(Cn2cncn2)c2ccc(F)cc2F)c1", "result": "4 µg/mL"}
{"SMILES": "CCCCN(Cc1cn(Cc2ccc(Cl)cc2)nn1)CC(O)(Cn1cncn1)c1ccc(F)cc1F", "result": "<0.125 µg/mL"}
{"SMILES": "CN(CC(=O)Nc1cccc([N+](=O)[O-])c1)CC(O)(Cn1cncn1)c1ccc(F)cc1F", "result": ">64 µg/mL"}
{"SMILES": "O=C1S/C(=C\\c2ccc3ccccc3n2)C(=O)N1CC(O)(Cn1nccn1)c1ccc(F)cc1F", "strain or isolate": "CNCYP51", "result": "2.21 µg/mL"}
{"SMILES": "CCCCN(Cc1cn(Cc2cccc(Br)c2)nn1)CC(O)(Cn1cncn1)c1ccc(F)cc1F", "result": ">64 µg/mL"}
{"SMILES": "Cc1ccc(NC(=O)CN(C)CC(O)(Cn2cncn2)c2ccc(F)cc2F)c(C)c1", "result": "16 µg/mL"}
{"SMILES": "O=C1S/C(=C\\c2ccc(F)cc2F)C(=O)N1CC(O)(Cn1nccn1)c1ccc(F)cc1F", "strain or isolate": "CNCYP51", "result": "8.36 µg/mL"}
{"SMILES": "O=C(/C=C/c1ccc([N+](=O)[O-])cc1)OC1CCN(CC(O)(Cn2cncn2)c2ccc(F)cc2F)CC1", "method": "broth dilution", "strain or isolate": "0306392", "result": "0.122 µM"}
{"SMILES": "CN(CC(=O)Nc1ccccc1)CC(O)(Cn1cncn1)c1ccc(F)cc1F", "result": "16 µg/mL"}
{"SMILES": "N#Cc1ccc(/C=C2\\SC(=O)N(CC(O)(Cn3nccn3)c3ccc(F)cc3F)C2=O)cc1", "strain or isolate": "CNCYP51", "result": "4.28 µg/mL"}

For reference, 3 entries again:

| SMILES | method | strain or isolate | result |
|---|---|---|---|
| CN(CC(=O)Nc1ccc(F)c(Cl)c1)CC(O)(Cn1cncn1)c1ccc(F)cc1F |  |  | 4 µg/mL |
| Cc1ccc(-c2c3c(N)c4c(nc3nc3c2c(C)nn3-c2ccccc2)CCCC4)cc1 | broth dilution / absorbance | CCC 124 | 31.2 µg/mL |
| O=C1S/C(=C\c2ccc(Cl)cc2)C(=O)N1CC(O)(Cn1nccn1)c1ccc(F)cc1F |  | CNCYP51 | 16.76 µg/mL |

An empty or dashed field is not shown. MIC50, MIC90 and the like: level of inhibition, or share of isolates inhibited.